Results of unrelated studies side by side (data: NIAID ChemDB).

All rows: tests in culture; agent: Mycobacterium tuberculosis

ECn: concentration that inhibits the pathogen or its effect by n%. An empty or dashed field is not shown. Conditions beyond the fields shown may differ between rows. MIC bound comes from a single tested concentration. Inhibition is in % at the dose shown (toxicity tests: loss of growth or viability). A number after MIC or MFC names an inhibition level or a share of isolates.

structure,changes,tested at,measure,cell line,strain or isolate,conditions,method,result
NC(=O)c1cnccn1,,,MIC,,DHMH 444,,,300 µg/mL
O=C1c2cc(Br)ccc2OP(=O)(c2ccccc2)N1c1ccc(C(F)(F)F)cc1,,,MIC,,234/2005,14 d,,1 µM
CC1=NN(C(=O)c2ccncc2)C(=O)C1N=Nc1ccc(S(=O)(=O)N=C(N)N)cc1,,12.8 µg/mL,inhibition,,H37Rv,,BACTEC,25%
COc1ccc2c(cnc3c4cc5c(cc4ccc23)OCO5)c1OC,,,MIC,,H37Ra ATCC 25177,,broth dilution / turbidity,>50 µg/mL
CCOCCN1CCN(c2cc(=O)c3nc4c(oc3c2)c2c(=O)c3c(O)c(C)c5c(c34)=C(O)[C@@](C)(O/C=C/[C@H](OC)[C@@H](C)[C@@H](OC(C)=O)[C@H](C)[C@H](O)[C@H](C)[C@@H](O)[C@@H](C)/C=C/C=C(/C)C(=O)N2)O5)CC1,,,MIC,,H37Rv,,,0.07 µg/mL
NCC[C@H](O)C(=O)N[C@@H]1C[C@H](N)[C@@H](O[C@H]2O[C@H](CN)[C@@H](O)[C@H](O)[C@H]2O)[C@H](O)[C@H]1O[C@H]1O[C@H](CO)[C@@H](O)[C@H](N)[C@H]1O,,,MIC,,1S,,,2.5 µg/mL
CC(C)C1C=C2C(C(=O)C1=O)[C@@]1(C)CCCC(C)(C)[C@@H]1C[C@@H]2O,,12.5 µg/mL,inhibition,,H37Rv,,,99%
O=C(Nc1ccc(C(F)(F)F)cc1)c1cc(Cl)ccc1OP(=O)(c1ccccc1)c1ccccc1,,,MIC,,9449/2007,21 d,,1 µM
CC1(C)CC(N=c2cc3n(-c4ccc(Cl)c(Cl)c4)c4ccccc4nc-3cc2Nc2ccc(Cl)c(Cl)c2)CC(C)(C)N1,,,EC50,Macrophages,H37Rv,inside macrophages,,<0.005 µg/mL
COc1cc2ccc3c4c(OC)cc(OC)c(OC)c4c[n+](C)c3c2cc1OC,,12.5 µg/mL,inhibition,,H37Rv,,BACTEC,66%
[2H]C([2H])([2H])OC(=O)N/C=C/CCCc1cc(O)c(C(=O)/C(C)=C/c2cnc(Oc3ccc(F)c(Cl)c3)s2)c(=O)o1,,,MIC,,H37Rv,,fluorescence,0.8 µg/mL
S=C(Nc1ccccc1)N1N=C(c2ccccc2)CC1c1ccccc1Cl,,,MIC,,H37Ra,,MTT,511 µg/mL
CC(C)=CCC/C(C)=C/CC/C(C)=C/CO,,,MIC,,H37Rv,,,8 µg/mL
COc1ccc(NCCN(C)C)c2c(=O)c3ccccc3sc12,,,MIC,,H37Rv,,BACTEC,6.25 µg/mL
CO[C@H]1/C=C/O[C@@]2(C)Oc3c(C)c(O)c4c(=O)c(c5oc6cc(N7CCN(CC(C)C)CC7)cc(=O)c6nc5c4c3=C2O)NC(=O)/C(C)=C\C=C\[C@H](C)[C@H](O)[C@@H](C)[C@@H](O)[C@@H](C)[C@H](O)[C@@H]1C,,,MIC,,H37Rv,,,0.017 µg/mL
O=C(c1ccc2ccccc2c1)c1cn(-c2cccc3ccccc23)nn1,,,MIC,,H37Rv,,,>12.5 µg/mL
CCCCCCCCC/C=C/C=C/C(=O)NCC(C)C,,,MIC,,H37Rv (ATCC 27294),,broth dilution / turbidity,1.6 µg/mL
CC1=NN(C(=O)CC(=O)Nc2ccc(Cl)cc2)C(=O)C1N=Nc1cc(Cl)ccc1Cl,,12.5 µg/mL,inhibition,,H37Rv,,BACTEC,0%
CCOC(=O)c1cn[nH]n1,,12.5 µg/mL,inhibition,,H37Rv,,,29%
CO[C@H]1/C=C/O[C@@]2(C)Oc3c(C)c(O)c4c(O)c(c(/C=N/N5CCN(C6CCCC6)CC5)c(O)c4c3C2=O)NC(=O)/C(C)=C\C=C\[C@H](C)[C@H](O)[C@@H](C)[C@@H](O)[C@@H](C)[C@H](OC(C)=O)[C@@H]1C,,,MIC,,H37Rv,,,0.06 µg/mL
O=C(c1ccc(O)cc1)N1N=C(c2ccccc2)CC1c1ccc(Cl)cc1Cl,,,MBC,,H37Ra,,visual reading,488 µM
N#Cc1ccn2c(-c3ccc(F)cc3)c(-c3ccc(F)cc3)c(C(O)c3ccccc3)c2c1,,6.25 µg/mL,inhibition,,H37Rv,,,35%
S=C(Nc1ccccc1)N1N=C(c2ccccc2)CC1c1ccc(Cl)cc1,,,MBC,,H37Ra,,visual reading,>511 µM
N#Cc1ccn2c(-c3ccccc3)c(-c3ccccc3)c(C(O)C3CCCCC3)c2c1,,,MIC,,H37Rv,,,>6.25 µg/mL
O=C1c2cc(Cl)ccc2OP(=O)(c2ccccc2)N1c1ccc(Cl)cc1,,,MIC,,My 331/88,14 d,,4 µM
N#Cc1ccn2c(-c3ccc(Cl)cc3)c(-c3ccc(Cl)cc3)c(C(O)c3ccccc3)c2c1,,6.25 µg/mL,inhibition,,H37Rv,,,86%
CC(C)C(=O)c1cn(-c2ccc(Cl)cc2)nn1,,12.5 µg/mL,inhibition,,H37Rv,,,0%
NNC(=O)c1ccncc1,gyrB mutant fluoroquinolone resistant,,MIC,,FQ-R1,,resazurin,0.088 µg/mL
Cc1ccc(C2CC(c3ccccc3)=NN2C(=S)Nc2ccccc2)cc1,,,MBC,,H37Ra,,visual reading,34 µM
CC(C)CCC[C@@H](C)CCC[C@@H](C)CCCC1(C)OC1CO,,,MIC,,H37Rv,,,8 µg/mL
CC1(C)CC(N=c2cc3n(-c4ccc(Cl)cc4Cl)c4ccccc4nc-3cc2Nc2ccc(Cl)cc2Cl)CC(C)(C)N1,,,MIC,,TBRP274 (INH SM-resistant),,,0.03 µg/mL
Cc1ccc(NC(=S)SCc2ccc(Cl)c(Cl)c2)cc1Cl,,,MIC bound,,H37Rv,,BACTEC,>12.5 µg/mL
O=C1c2cc(Cl)ccc2OP(=O)(c2ccccc2)N1c1ccc(Cl)c(Cl)c1,,,MIC,,My 331/88,14 d,,2 µM
COc1ccc(NC(=O)NNC(=O)CCCC(=O)NNC(=O)Nc2ccc(OC)cc2)cc1,,12.5 µg/mL,inhibition,,H37Rv,,BACTEC,13%
Cc1cccn2c(=O)c3cc(C(=O)NCc4ccco4)c(=N)n(CCCO)c3nc12,,,MIC,,H37Rv (ATCC 27294),,,110 µM
Cc1ccc(-c2c(C(O)c3ccccc3)c3cc(C#N)ccn3c2-c2ccc(C)cc2)cc1,,6.25 µg/mL,inhibition,VERO,H37Rv,,,100%
CC(=O)c1cn(-c2ccccc2)nn1,,12.5 µg/mL,inhibition,,H37Rv,,,5%
S=C(Nc1ccccc1)N1N=C(c2ccccc2)CC1c1ccc(Cl)cc1Cl,,,MIC,,H37Ra,,MTT,471 µM
CCC(O)c1c(-c2ccccc2)c(-c2ccccc2)n2ccc(C#N)cc12,,,MIC,,H37Rv,,,>6.25 µg/mL
CC1(C)N=C(N)N=C(N)N1c1ccc(Cl)c(CCCCc2ccc(S(=O)(=O)F)cc2)c1.CCS(=O)(=O)O,,12.5 µg/mL,inhibition,,H37Rv,,BACTEC,0%
CCCN1CCN(c2cc(=O)c3nc4c(oc3c2)c2c(=O)c3c(O)c(C)c5c(c34)=C(O)[C@@](C)(O/C=C/[C@H](OC)[C@@H](C)[C@@H](OC(C)=O)[C@H](C)[C@H](O)[C@H](C)[C@@H](O)[C@@H](C)/C=C/C=C(/C)C(=O)N2)O5)CC1,,,MIC,,H37Rv,,,0.07 µg/mL
CC(C)n1c(=O)nc(-c2ccccc2)c2cc3c(cc21)OCO3,,,MIC bound,,H37Rv,,BACTEC,>12.5 µg/mL
O=C1c2cc(Cl)ccc2OP(=O)(c2ccccc2)N1c1ccc(C(F)(F)F)cc1,,,MIC,,Praha 1,14 d,,1 µM
NNC(=O)c1ccncc1,,,MIC,,H37Rv (ATCC 27294),,broth dilution / turbidity,0.03 µg/mL
CC1(C)CC(N(C(=O)/C=C/c2ccc([N+](=O)[O-])o2)C2CCCCC2)CC(C)(C)N1,,12.5 µg/mL,inhibition,,H37Rv,,BACTEC,8%
O=C(Nc1ccc(C(F)(F)F)cc1)c1cc(Br)ccc1OP(=O)(OCc1ccccc1)OCc1ccccc1,,,MIC,,My 331/88,14 d,,8 µM
COc1ccc2c(c1OC)C(CC(C)=O)N(C)c1c-2ccc2cc3c(cc12)OCO3,,,MIC,,H37Ra ATCC 25177,,broth dilution / turbidity,>50 µg/mL
O=C(c1ccc(Cl)c(Cl)c1)c1cn(-c2ccccc2)nn1,,12.5 µg/mL,inhibition,,H37Rv,,,0%
CC(=O)NC[C@H]1CN(c2ccc(N3CCOCC3)c(F)c2)C(=O)O1,,,MIC,,5S,,,0.5 µg/mL
O=C1CC2OCC=C3CN4CCC56c7cc(O)c(O)cc7N1C5C2C3CC46,,,MIC bound,,H37Rv,,BACTEC,>12.5 µg/mL
COc1ccc2c(c1OC)CN(C)c1c-2ccc2cc3c(cc12)OCO3,,,MIC,,H37Ra ATCC 25177,,broth dilution / turbidity,>50 µg/mL
CC(C)c1c(O)ccc2c1CCC1C(C)(C)CCC[C@]21C,,,MIC,,H37Rv,,,>12.5 µg/mL
Cc1ncc(COP(=O)(O)O)c(C2N[C@@H](C(=O)O)CS2)c1O,,12.5 µg/mL,inhibition,,H37Rv,,BACTEC,0%
COc1cc2ccc3c4c(OC)cc5c(c4c[n+](C)c3c2cc1OC)OCO5,,12.5 µg/mL,inhibition,,H37Rv,,BACTEC,70%
O=C1OCC(Cc2ccc3c(c2)OCO3)/C1=C\c1ccc2c(c1)OCO2,,,MIC,,H37Ra ATCC 25177,,broth dilution / turbidity,>50 µg/mL
CCCCC1C/C=C/C=C/C=C/C=C/C(OC2OC(C)C(O)C(N)C2O)CC2OC(O)(CC(O)CC3OC3/C=C/C(=O)O1)CC(O)C2C(=O)O,,,MIC,,H37Rv,,BACTEC,≥12.8 µg/mL
N#Cc1ccn2c(-c3ccccc3)c(-c3ccccc3)c(Br)c2c1,,6.25 µg/mL,inhibition,,H37Rv,,,69%
C=CCSc1nc2ccccc2c(=O)n1Cc1ccco1,,,MIC bound,,H37Rv,,BACTEC,>12.5 µg/mL
Cc1cc(C)c(C(=O)c2cn(-c3ccccc3)nn2)c(C)c1,,,MIC,,H37Rv,,,>12.5 µg/mL
CC/C(C)=C(/NC(=O)[C@H](C)NC(=O)[C@@H]1CCC=NN1C(=O)[C@@H](NC(=O)[C@H](C)NC(=O)C(N)(CO)CO)[C@H](C)N)C(=O)N[C@@H](CO)C(=O)O,,,MIC,,Rifampicin-resistant,,,3.1 µg/mL
CC(C)N.CC(C)N(C(=S)S)C(C)C,,128 µg/mL,inhibition,,H37Rv,,BACTEC,92%
N#Cc1ccn2c(-c3ccccc3)c(-c3ccccc3)c(C(O)c3ccccc3)c2c1,,,MIC,VERO,H37Rv,,,6.25 µg/mL
OC[C@H]1O[C@@H](n2nnc3cc(Cl)c(Cl)cc32)[C@H](O)[C@@H]1O,,,MIC bound,,H37Rv,,BACTEC,>12.5 µg/mL
CO[C@H]1/C=C/O[C@@]2(C)Oc3c(C)c(O)c4c(O)c(c(/C=N/N5CCN(C)CC5)c(O)c4c3C2=O)NC(=O)/C(C)=C\C=C\[C@H](C)[C@H](O)[C@@H](C)[C@@H](O)[C@@H](C)[C@H](OC(C)=O)[C@@H]1C,rpoB mutant rifampicin-resistant,,MIC,,RIF-R1,,resazurin,0.42 µg/mL
Cc1cc(O)c2c(c1)C(=O)C(c1c(C)cc3c(c1O)C(=O)C=CC3=O)=CC2=O,,,MIC,,C9 streptomycin- isoniazid- rifampin-resistant,,,100 µg/mL
COC1(Nc2ccc(C=O)cc2)C(=O)c2ccccc2OC1(OC)c1ccc([N+](=O)[O-])cc1,,,MIC bound,,H37Rv,,BACTEC,>12.5 µg/mL
COc1ccc2c(c[n+](C)c3c4cc5c(cc4ccc23)OCO5)c1OC,,12.5 µg/mL,inhibition,,H37Rv,,BACTEC,99%
CC1=C(C)C(=O)C(CC2=C(C)C(=O)C(C)=C(C)C2=O)=C(C)C1=O,,,MIC,VERO,H37Rv,,,4 µg/mL
COc1ccc(C(=O)c2cn(-c3ccc(Cl)cc3)nn2)cc1,,,MIC,,H37Rv,,,>12.5 µg/mL
Cl.NC(=S)NNC(=O)c1cccnc1,,12.5 µg/mL,inhibition,,H37Rv,,BACTEC,24%
C/C(=C\CO)CCC[C@H](C)CCC[C@H](C)CCCC(C)C,,,EC50,,H37Rv,,,<33 µg/mL
CC(C)(C)OC(=O)NC(CCC(=O)OCc1ccccc1)C(=O)N[C@@H]1C(CO)O[C@@H](n2cnc3c(N)ncnc32)[C@H]1O,,,MIC bound,,H37Rv,,BACTEC,>12.5 µg/mL
CCC(C)N1CCN(c2cc(=O)c3nc4c(oc3c2)c2c(=O)c3c(O)c(C)c5c(c34)=C(O)[C@@](C)(O/C=C/[C@H](OC)[C@@H](C)[C@@H](OC(C)=O)[C@H](C)[C@H](O)[C@H](C)[C@@H](O)[C@@H](C)/C=C/C=C(/C)C(=O)N2)O5)CC1,,,MIC,,H37Rv,,,0.017 µg/mL
O=C(O)c1cccc(-n2ncc(Cl)c(Cl)c2=O)c1,,,MIC bound,,H37Rv,,BACTEC,>6.25 µg/mL
COc1cc2c3c(OC)cc4c(c3c[n+](C)c2c2cc3c(cc12)OCO3)OCO4,,,MIC,,H37Rv,,BACTEC,<12.5 µg/mL
CSC(=S)N/N=C(\Cc1ccccc1)c1ccccn1,,,MIC bound,,H37Rv,,BACTEC,≤128 µg/mL
CCn1cc(C(=O)O)c(=O)c2ccc(C)nc21,,,MIC90,,H37Rv,,,>50 µM